Data source: PubChem BioAssay AID504761 (Drosophila RNAi Screening Center, 2011)
The deposit covers about 22,000 reagents; below is an unselected part of those with a known target gene and a result. In the full data, 116 (0.52%) were called active. 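Calls depend on retest data that are not deposited; infection was ranked per plate without normalising between plates; the unit of the infection score is not given.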 Raw values vary from plate to plate and are shown uncorrected. Entries without a mark were called inactive. Names joined by + are all predicted targets of the reagent. Not stated in the record: the amount of reagent, the time to read-out.

- Purpose: 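Genome-wide fly cell screen for genes dengue virus requires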 (primary screen)
- System: D.Mel-2 cells from Drosophila
- Reagents: long dsRNA against Drosophila genes
- Challenge: infection with dengue virus type 2; dose and infection time not stated
- Measurement: 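Cells stained for dengue envelope protein and imaged; percent of infected cells per well on duplicate plates, ranked by infection, with stained nuclei counted for cell number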
- Scale: infection score: higher = more virus-infected cells; cell count: higher = more cells in the well
- Hit rule: 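Low infection ranks in the two replicates (chance level up to 0.065) followed by a retest with a 1.5-fold or larger significant decrease, p below 0.05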
- Calls: active = confirmed: knock-down lowers infection; inactive = not picked or not confirmed

target	DRSC id	infection score, replicate 1	infection score, replicate 2	cell count, replicate 1	cell count, replicate 2
CG13218	DRSC06340	19.3	2.38	5696	6807
CG13218	DRSC26951	6.79	4.69	6351	6252
SAK (Sak kinase)	DRSC11879	4.77	9.22	5865	5802
SAK (Sak kinase)	DRSC23329	0.76	31.1	6466	5838
SAK (Sak kinase)	DRSC29461	12.9	0.57	5933	353
Loxl2 (Lysyl oxidase-like 2)	DRSC04469	7.41	20.4	6305	5688
sima (similar)	DRSC23203	3.11	6.55	4208	3862
sima (similar)	DRSC28794	32	14.4	5575	5238
Ilp2 (Insulin-like peptide 2)	DRSC10968	7.8	5.22	6561	6548
Ilp2 (Insulin-like peptide 2)	DRSC29688	25.8	23.7	1521	6112
ppk25 (pickpocket 25)	DRSC04973	13.2	9.47	4686	2787
ppk25 (pickpocket 25)	DRSC27513	2.36	12.3	6612	6590
CG33523	DRSC09814	1.93	23.7	6426	5468
CG33523	DRSC22155	2.24	27.4	6642	4925
pirk (poor Imd response upon knock-in)	DRSC04269	11.9	9.67	6259	6642
CG3014	DRSC15458	9.25	9.74	6078	6087
Trs31 (TRAPP subunit 31)	DRSC05975	35.1	17.2	6173	6133
CG42675	DRSC12157	11.9	4.39	5079	6168
CG42675	DRSC21868	4.13	2.39	7049	838
CG42675	DRSC24431	2.89	4.98	6231	6065
CG42675	DRSC26577	1.57	8.84	6052	5846
rumi	DRSC15177	6.36	4.57	6749	6743
rumi	DRSC29617	18.5	6.03	5263	2008
CG32071	DRSC22298	3.74	1.94	5831	6225
CG32071	DRSC25705	7.83	5.18	6408	6235
CG4712	DRSC06882	11.5	5.97	5875	6229
CG31493	DRSC12583	2.93	8.04	6036	6023
del (deadlock)	DRSC03170	27.2	42.8	5526	4898
CG13712	DRSC08321	2.68	1.8	5831	6003
CG42390	DRSC23064	0.82	1.39	6227	6745
CG42390	DRSC23065	0.93	5.02	6117	6452
Fpgs1 (Folylpolyglutamate synthase 1)	DRSC19857	17.6	21.9	5349	6241
Fpgs1 (Folylpolyglutamate synthase 1)	DRSC25579	5.7	2.84	6089	5624
pon (partner of numb)	DRSC18823		0.81	365	494
CG10804	DRSC17764	9.22	14.2	6639	6351
san (separation anxiety)	DRSC07695	4.02	8.1	5399	5578
CG9897 + asRNA:CR42742	DRSC04595	6.99	5.79	6563	6618
obst-I (obstructor-I)	DRSC08339	16.4	23.4	7039	6168
fne (found in neurons)	DRSC20332	6.33	25.9	869	2853
fne (found in neurons)	DRSC25027	3.1	4.8	6385	6082
fne (found in neurons)	DRSC25129	7.49	6.24	5927	6395
BORCS6 (BLOC-1 related complex subunit 6)	DRSC08514	1.92	0.54	5882	5692
BORCS6 (BLOC-1 related complex subunit 6)	DRSC25735	1.46	1.84	6296	6527
CG14160	DRSC10161	11.7	5.96	5645	5651
CG3376	DRSC04362	16.8	17.2	6285	6268
CG3376	DRSC26489	0.83	0.8	6357	5786
AstA-R1 (Allatostatin A receptor 1)	DRSC17278	1.59	5.81	6788	6678
AstA-R1 (Allatostatin A receptor 1)	DRSC17727		24.5	323	5996
Cp38 (Chorion protein 38)	DRSC18453	0.78	2.65	6512	6487
CG2116	DRSC18206	11.1	5.05	6418	6593
CG2116	DRSC24617	5.22	3.13	6054	5789
narya	DRSC19439	5.13	5.85	6435	1145
Nox (NADPH oxidase)	DRSC06596	16	27	3996	5459
Nox (NADPH oxidase)	DRSC06857	22.2	21.1	5788	1913
Nox (NADPH oxidase)	DRSC27816	6.85	15.1	6935	6517
Nox (NADPH oxidase)	DRSC29856	22.2	15.8	6512	6308
mdu (meduse)	DRSC23192	0.98	24.6	6223	5862
mdu (meduse)	DRSC28604	4.84		2519	418

Targets above whose gene name begins with I or i (2):
target	DRSC id	infection score, replicate 1	infection score, replicate 2	cell count, replicate 1	cell count, replicate 2
Ilp2 (Insulin-like peptide 2)	DRSC10968	7.8	5.22	6561	6548
Ilp2 (Insulin-like peptide 2)	DRSC29688	25.8	23.7	1521	6112
